Reference: PMC12578633, “Cross-neutralizing and potent human monoclonal antibodies against historical and emerging H5Nx influenza viruses” (Nature Microbiology, 2025)

Target: H5 A/Texas/37/2024 haemagglutinin ectodomain, soluble trimer (influenza A virus H5N1 A/Texas/37/2024)
Details: both partners purified

Binder | Kd [nM] | koff [s⁻¹] | kon [M⁻¹ s⁻¹]
310-12D03 Fab (Fab, V domains shown) VH: QVQLQESGPGLVKPSETLSLTCTVSGDSVSSGDYFWSWIRQPPGKGLEWIGYIFYGGNTKYNPSLKSRVAISVDTSKDQFSLKLTSVTAADTAVYYCATSYITGIQGVDYWGQGTLITVSS VL: EIVLTQSPGTLSLSPGERATLSCRASQSVSSSFLAWYQQKPGQAPKLLIYGASSRATGIPDRFSGSGSGTDFTLTISRLEPEDFAVYYCQQYGYSLTWTFGQGTKVEIK | 5.03 | 0.000285 | 56600
326-289.74 Fab (Fab, V domains shown) VH: QVQLVQSGAEVKKPGSSVKVSCKASGGTFSIYTFTWVRQAPGHGLEWMGGILPISGSAKYAQKFLGRVTITADESTSTVYMELSSLRSEDTAIYYCARDPYSNYFYGLDVWGQGTTVTVSS VL: EIVLTQSPVTLSLSPGERATLSCRASQSVSRFLAWYQQKPGQAPRLLFYDASTRATGIPARFSGTGSGTDFTLTISGLEPEDFAVYYCQQRSNWPPEYSFGQGTKLEIK | 0.28 | 1.21e-05 | 43000
326-366.26 Fab (Fab, V domains shown) VH: QMQLQESGPGLVKPSGTLSLTCAVSGGSISNSHWWSWVRQSPGKGLEWIGEIYHSGSTYYNPSLKSRLTISVDKSKNQFSLKLTSVTAADTAVYFCARGLGWEQGGYRAFDMWGQGTTVTVSS VL: EIVMTQSPATLSVSPGERVTLSCRASQSVGSSLAWYQQKPGQAPRLLIYAASTRATGIPARFSGSGSGTEFTLTISSLQSEDFAVYYCQQHYNWPPLTFGGGTKVEIK | 0.193 | 2.84e-05 | 147000
